The text below walks through data of PMC8548585, “Triazolopyrimidine herbicides are potent inhibitors of Aspergillus fumigatus acetohydroxyacid synthase and potential antifungal drug leads” (Scientific Reports, 2021).

The chains behind the UniProt entries cited, without tags or fusion partners. Residues count along the entry.
UniProt Q4WXQ3, 112-752 limits assumed: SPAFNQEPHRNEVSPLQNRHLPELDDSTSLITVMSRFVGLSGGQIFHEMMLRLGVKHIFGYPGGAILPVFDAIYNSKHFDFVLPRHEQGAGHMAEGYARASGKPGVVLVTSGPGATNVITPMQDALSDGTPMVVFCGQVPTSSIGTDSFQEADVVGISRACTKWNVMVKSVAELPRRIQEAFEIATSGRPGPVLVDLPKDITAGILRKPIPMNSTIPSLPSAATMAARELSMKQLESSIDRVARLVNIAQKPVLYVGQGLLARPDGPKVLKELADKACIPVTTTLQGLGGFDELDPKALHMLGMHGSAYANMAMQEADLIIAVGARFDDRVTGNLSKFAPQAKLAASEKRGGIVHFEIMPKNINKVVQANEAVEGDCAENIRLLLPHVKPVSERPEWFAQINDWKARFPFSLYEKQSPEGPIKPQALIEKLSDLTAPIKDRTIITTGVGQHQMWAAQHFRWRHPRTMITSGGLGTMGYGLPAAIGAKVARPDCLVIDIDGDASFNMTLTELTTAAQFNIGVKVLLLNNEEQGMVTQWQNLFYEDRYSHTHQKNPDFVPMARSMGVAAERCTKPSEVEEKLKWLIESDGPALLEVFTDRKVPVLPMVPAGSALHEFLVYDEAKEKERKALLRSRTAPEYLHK

pKi: −log10 of the molar value. ≈ marks a conversion by molar mass, not a printed value. Where “and” joins values, the source holds several entries; their conditions need not be identical. Equal values may be shown once.

Test [1] deals with T1, AfuAHAS (Aspergillus fumigatus, UniProt Q4WXQ3). Put plainly: Accumulative inhibition assay (continuous spectrophotometric method). The following applies: for kiapp, apparent first-order rate of inhibition: 2.6 µM AfuAHAS, 25 nM PS, FS, MT or 100 nM other herbicides, 30 °C, 45 min; for kiapp/k3, efficiency of accumulative inhibition: AfuAHAS.
The target in test [2] is AfuAHAS (A. fumigatus AHAS catalytic subunit) (Aspergillus fumigatus, UniProt Q4WXQ3). The test can be described thus: Ki determination by the colorimetric single point method in partial anoxic buffer. The note with it: read-out: Ki for AfuAHAS; partial anoxic assay buffer (N2 bubbling, 2-mercaptoethanol), 30 °C, 49.37 nM enzyme.
The next test deals with A. fumigatus. The test can be described thus: Antifungal susceptibility assay (broth microdilution MIC). The class given is cell-based, Aspergillus fumigatus. The following applies: A. fumigatus strain ATCC MYAA 3626, 35 °C, 48 h, no observable growth.
Another test concerns A. nidulans. Described as above. The class given is cell-based, Aspergillus nidulans. The note with it: 35 °C, 48 h, no observable growth.
The subject of the next test is A. niger. The description is as above. The class given is cell-based, Aspergillus niger. The note with it: 35 °C, 48 h, no observable growth.
Another test deals with A. flavus. The test is described as above. The class given is cell-based, Aspergillus flavus. The following applies: 35 °C, 48 h, no observable growth.
Test [3] has as its system CaAHAS (C. albicans AHAS). The following applies: read-out: Ki for CaAHAS; shown for comparison; ref 13 (Garcia et al.); cited from earlier work.
The subject of test [4] is CaAHAS. The note with it: cited from earlier work.
Test [5] addresses T1, AfuAHAS. The test can be described thus: Stoichiometry of enzyme inhibition (continuous method). The note with it: 0.5 µM CE; extrapolation of the linear regression line.
In test [6] the test system is CaAHAS. The note with it: read-out: KM for pyruvate; cited from earlier work.

Take `CCOc1nc(F)cc2nc(S(=O)(=O)Nc3c(Cl)cccc3C(=O)OC)nn12` [CSM]: at AfuAHAS [1], the “kiapp, apparent first-order rate of inhibition” value (“kiapp … of inhibition” below) was determined as 8.7 ± 1.8 min⁻¹ and the “kiapp/k3, efficiency of accumulative inhibition” value was determined as 545. In [2], the pKi (commonly −log10 of the Ki, conventionally taken in molar units) is 8.17.
On to `COc1cc(OC)n2nc(NS(=O)(=O)c3c(C(F)(F)F)ccnc3OC)nc2n1` [PYS], for which, on AfuAHAS [1], the “kiapp … of inhibition” value was found to be 6.9 ± 0.4 min⁻¹ and the “kiapp/k3, efficiency of accumulative inhibition” value came out at 138.8. Besides, in [2], the negative logarithm of the Ki (pKi) is 7.42.
`CCc1cnc(C2=NC(C)(C(C)C)C(=O)N2)c(C(=O)O)c1` (centres unmarked): the MIC in the test on A. fumigatus, in the test on A. nidulans, in the test on A. niger and against A. flavus was more than 100 µg/mL throughout.
As for `COc1cc(OC)n2nc(S(=O)(=O)Nc3c(Cl)ccc(C)c3Cl)nc2n1`, the MIC – broadly, the lowest concentration that inhibits growth of the organism – is listed as 25 µg/mL (≈ 59.8 µM) with A. fumigatus, 25 µg/mL (≈ 59.8 µM) against A. nidulans, more than 100 µg/mL in the test with A. niger and more than 100 µg/mL in the test on A. flavus. Also, the pKi in test [3] is 9.10; in [2], 8.85. Besides, the “k3 for CaAHAS” value with CaAHAS [4] was 0.023 min⁻¹. The “kiapp for CaAHAS” value with CaAHAS [4] is 3.39 min⁻¹. Besides, the “kiapp/k3 for CaAHAS” value with CaAHAS [4] was 147.4. In addition, on AfuAHAS [1], the “kiapp … of inhibition” value was 4.2 min⁻¹ and 4.2 ± 0.6 min⁻¹. Further, the “kiapp/k3, efficiency of accumulative inhibition” value at AfuAHAS [1] came to 1750.
As for `COc1ncc(F)c2nc(S(=O)(=O)Nc3c(F)cccc3F)nn12`, the MIC in the test on A. fumigatus, in the test on A. nidulans, against A. niger and against A. flavus was more than 100 µg/mL each time. Further, the pKi was 8.00 in test [3] and 7.84 in test [2]. Besides, the “kiapp … of inhibition” value on AfuAHAS [1] amounted to 17.8 ± 0.6 min⁻¹. Also, at AfuAHAS [1], the “kiapp/k3, efficiency of accumulative inhibition” value is 1268.
As to `Cc1cc2nc(S(=O)(=O)Nc3c(F)cccc3F)nn2cn1`, the “kiapp … of inhibition” value at AfuAHAS [1] was “NAI”. Further, in test [2], the pKi was 6.43.
For the compound `COC(=O)c1csc(C)c1S(=O)(=O)NC(=O)n1nc(OC)n(C)c1=O` [TCM], on AfuAHAS [1], the “kiapp … of inhibition” value was found to be 0.59 ± 0.03 min⁻¹ and the “kiapp/k3, efficiency of accumulative inhibition” value was found to be 53.6. Besides, in [2], the pKi is 6.12.
As to `COc1cnc(OC)n2nc(NS(=O)(=O)c3c(OCC(F)F)cccc3C(F)(F)F)nc12`, the MIC is listed as 25 µg/mL (≈ 51.7 µM) in the test on A. fumigatus, 25 µg/mL (≈ 51.7 µM) with A. nidulans, more than 100 µg/mL in the test with A. niger and more than 100 µg/mL in the test with A. flavus. Further, the pKi in test [3] was 8.62; in test [2], 8.74. The “k3 for CaAHAS” value in the test on CaAHAS [4] is 0.074 min⁻¹. The “kiapp for CaAHAS” value with CaAHAS [4] was 15.26 min⁻¹. Further, in the test with CaAHAS [4], the “kiapp/k3 for CaAHAS” value is recorded as 206. The “kiapp … of inhibition” value at AfuAHAS [1] was 18.5 min⁻¹ and 18.5 ± 2.6 min⁻¹. Besides, the “kiapp/k3, efficiency of accumulative inhibition” value on AfuAHAS [1] stood at 1426.
In the case of `COc1cc(OC)nc(Oc2cccc(Oc3nc(OC)cc(OC)n3)c2C(=O)O)n1`, the MIC against A. fumigatus, in the test with A. nidulans, with A. niger and in the test on A. flavus was more than 100 µg/mL in each case. The pKi in [3] is 5.59; in [2] it was 4.26. In addition, the “kiapp … of inhibition” value on AfuAHAS [1] is given as “NAI”.
For `COC(=O)c1ccccc1CS(=O)(=O)NC(=O)Nc1nc(OC)cc(OC)n1`, the MIC in the test on A. fumigatus, against A. nidulans, in the test with A. niger and against A. flavus was more than 100 µg/mL in each case. In addition, the “kiapp … of inhibition” value at AfuAHAS [1] was determined as 0.7 ± 0.1 min⁻¹. The “kiapp/k3, efficiency of accumulative inhibition” value on AfuAHAS [1] is 257.7. For the same compound, in test [2], the pKi was 6.50.
With `CCOC(=O)c1ccccc1S(=O)(=O)NC(=O)Nc1nc(Cl)cc(OC)n1`, the MIC in the test on A. fumigatus is listed as 100 µg/mL (≈ 241 µM); in the test with A. nidulans it was more than 100 µg/mL; against A. niger, more than 100 µg/mL; with A. flavus, more than 100 µg/mL. On AfuAHAS [5], the “concentration of AfuAHAS fully inhibited” value is 1.06 µM. Besides, the “kiapp … of inhibition” value at AfuAHAS [1] stood at 0.6 ± 0.1 min⁻¹. On AfuAHAS [1], the “kiapp/k3, efficiency of accumulative inhibition” value was determined as 96.7. In addition, the pKi in test [2] was 7.63.
In the case of `CCOc1nc(F)cc2nc(S(=O)(=O)Nc3c(Cl)cccc3Cl)nn12`, the MIC against A. fumigatus, with A. nidulans, against A. niger and against A. flavus was more than 100 µg/mL each time. Moreover, the pKi in test [3] was 8.77; in test [2], 8.06. For the same compound, the “kiapp … of inhibition” value at AfuAHAS [1] worked out at 3.2 ± 0.8 min⁻¹. Further, on AfuAHAS [1], the “kiapp/k3, efficiency of accumulative inhibition” value stood at 530.
On to `CCOc1ccccc1OS(=O)(=O)NC(=O)Nc1nc(OC)cc(OC)n1`, for which the MIC in the test with A. fumigatus, in the test with A. nidulans, in the test with A. niger and in the test on A. flavus was more than 100 µg/mL in each case. The pKi in [3] was 7.16; in test [2], 6.66. For the same compound, the “kiapp … of inhibition” value on AfuAHAS [1] came to 1.0 ± 0.3 min⁻¹. Moreover, the “kiapp/k3, efficiency of accumulative inhibition” value on AfuAHAS [1] worked out at 31.3.
`COC(=O)c1ccccc1S(=O)(=O)NC(=O)Nc1nc(C)cc(C)n1`: the MIC against A. fumigatus, against A. nidulans, in the test with A. niger and in the test on A. flavus was more than 100 µg/mL throughout. Also, at AfuAHAS [1], the “kiapp … of inhibition” value was found to be 0.2 ± 0.1 min⁻¹. Also, the “kiapp/k3, efficiency of accumulative inhibition” value at AfuAHAS [1] is on record as 26.2. For the same compound, the pKi in [2] was 5.51.
Regarding `C=C(OC)c1ccccc1S(=O)(=O)NC(=O)n1nc(OCCC)n(C)c1=O`, the MIC in the test on A. fumigatus, in the test on A. nidulans, with A. niger and against A. flavus was more than 100 µg/mL throughout. Moreover, the pKi was 6.32 in test [3] and 6.03 in test [2]. Further, on AfuAHAS [1], the “kiapp … of inhibition” value was 0.34 ± 0.09 min⁻¹. For the same compound, the “kiapp/k3, efficiency of accumulative inhibition” value on AfuAHAS [1] was determined as 11.3.
Regarding `CC(=O)C(=O)O`, in the test on CaAHAS [6], the Km (as a rule, the substrate concentration at which the rate is half of its maximum) is 2600 µM.
As to `COc1cc(OC)cc(Sc2cccc(Cl)c2C(=O)O)c1`, the “kiapp … of inhibition” value at AfuAHAS [1] is “NAI”. In addition, in test [2], the pKi was 4.51.
`CC(C)C1(C)N=C(c2nc3ccccc3cc2C(=O)O)NC1=O` (centres unmarked): the MIC in the test on A. fumigatus, with A. nidulans, in the test with A. niger and against A. flavus was more than 100 µg/mL in each case. The pKi in [3] was 3.15.
In the case of `COc1nc(C)nc(NC(=O)NS(=O)(=O)c2ccccc2Cl)n1`, the MIC against A. fumigatus, with A. nidulans, in the test on A. niger and against A. flavus was more than 100 µg/mL throughout. Moreover, the pKi in test [3] was 6.24; in [2], 5.92. Also, the “kiapp … of inhibition” value at AfuAHAS [1] was “NAI”.
